# Human monoclonal antibodies against the spike receptor-binding domain (heavy:light variable regions). IC50 against pseudoviruses bearing the spike of naturally observed variants; lower = stronger; >10 µg/ml means not reached at the top dose. No active / inactive call. The stated detection limit is 0.0005 µg/ml; values near or below 0.001 µg/ml lie at the floor of the assay.
# Assays:
# Assay in all cases: pseudovirus neutralization IC50; higher = weaker neutralization
# [1] = molecular target: SARS-CoV-2 Omicron BA.1 spike pseudovirus
# Procedure: (§1)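 Single-round VSV luciferase pseudovirus mixed with antibody dilutions for 1 h and put on Huh-7 cells for about a day; IC50 from the dose curve.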
# [2] = molecular target: SARS-CoV-2 Omicron BA.2 spike pseudovirus
# Procedure: as §1
# [3] = molecular target: SARS-CoV-2 Omicron BA.2.75 spike pseudovirus
# Procedure: as §1
# [4] = molecular target: SARS-CoV-2 Omicron BA.5 spike pseudovirus
# Procedure: as §1
# [5] = molecular target: SARS-CoV-2 Omicron BQ.1.1 spike pseudovirus
# Procedure: as §1
# [6] = molecular target: SARS-CoV-2 Omicron XBB spike pseudovirus
# Procedure: as §1
# [7] = molecular target: SARS-CoV-2 early D614G spike pseudovirus
# Procedure: as §1
binder,measurement,setting,value
BD55-6193 (protein) chain 1: EVQLVESGGGFVKPGRSLRLACTASGFTFGDYTMSWFRQAPGKGLEWVGFIRNKGYGGTTEYAASVQGRFTISRDDSNSIAYLQMNSLKTEDTAVYFCAREGTFSYYYYYAMDVWGQGATVTVSS chain 2: DIQMTQSPSSLSASVGDRVTITCRASQSISFYLNWYQQKPGKAPKLLIYGASTLQNGVPSRFSGSGSGTDFTLTISSLQPEDFATYYCQHSYSISITFGQGTRLEIK,pseudovirus neutralization IC50,[1],> 10 µg/mL
same,pseudovirus neutralization IC50,[2],> 10 µg/mL
same,pseudovirus neutralization IC50,[3],> 10 µg/mL
same,pseudovirus neutralization IC50,[4],> 10 µg/mL
same,pseudovirus neutralization IC50,[5],> 10 µg/mL
same,pseudovirus neutralization IC50,[6],> 10 µg/mL
same,pseudovirus neutralization IC50,[7],5.17 µg/mL
BD55-6194 (protein) chain 1: EMQLVESGGGLVQPGRSLTLSCTASGFTLGDYTVNWVRQAPGKGLEWLGFIRNNAYGGAPEYAASVRGRFSVSRDDSKATAYLQMNGLKIEDTAVYYCAREGGSSGWSYYYYMDVWGKGTTVTVSS chain 2: DIQMTQSPSSLSGSLGDRVTMTCRASQTISNYLNWYQQKPGRAPKLLIYAASTLQSGVPSRFTGSGSGTEFTLTITSLQPDDFATYICQQSYTSQYTFGQGTKLEIK,pseudovirus neutralization IC50,[1],> 10 µg/mL
same,pseudovirus neutralization IC50,[2],> 10 µg/mL
same,pseudovirus neutralization IC50,[3],> 10 µg/mL
same,pseudovirus neutralization IC50,[4],> 10 µg/mL
same,pseudovirus neutralization IC50,[5],> 10 µg/mL
same,pseudovirus neutralization IC50,[6],> 10 µg/mL
same,pseudovirus neutralization IC50,[7],> 10 µg/mL
BD55-6197 (protein) chain 1: QVQLVQSGSELKKPGASVKVSCKASGYTFTTQAMNWVRQAPGQGLEWMGWINTNTGNPTYAQGFTGRFVFSLDTSVSTAYLQISSLKAEDTAVYYCARELNQGYSGYDWWDHDAFDIWGQGTMVTVSS chain 2: QSALTQPPSASGSPGQSVTISCTGTSSDVGGYNYVSWYQQHPGKAPKLMIYEVSKRSSGVPDRFTGSKSGNTASLTVSGLQGEDEADYYCSSYAGSTTVVFGGGTKLTVL,pseudovirus neutralization IC50,[1],> 10 µg/mL
same,pseudovirus neutralization IC50,[2],> 10 µg/mL
same,pseudovirus neutralization IC50,[3],> 10 µg/mL
same,pseudovirus neutralization IC50,[4],> 10 µg/mL
same,pseudovirus neutralization IC50,[5],> 10 µg/mL
same,pseudovirus neutralization IC50,[6],> 10 µg/mL
same,pseudovirus neutralization IC50,[7],0.138 µg/mL
BD55-6199 (protein) chain 1: QITLKESGPTLVKPTQTLTLTCTFSGFSLSTSGVGVGWIRQPPGKALEWLALIYWDDDKRYSPSLKSRLTISKDTSKNQVVLTMTNMDPVDTATYYCAHSPGLYFYGSGSYYLYWGQGTLVTVSS chain 2: EIVLTQSPGTLSLSPGERATLSCRASQSLSSSYLAWYQQKPGQAPRLLIYGDSSRATGIPDRFSGSGSGTDFTLTISRLEPEDFAVYYCQQYFSSPQTFGQGTKVEIK,pseudovirus neutralization IC50,[1],> 10 µg/mL
same,pseudovirus neutralization IC50,[2],> 10 µg/mL
same,pseudovirus neutralization IC50,[3],> 10 µg/mL
same,pseudovirus neutralization IC50,[4],> 10 µg/mL
same,pseudovirus neutralization IC50,[5],> 10 µg/mL
same,pseudovirus neutralization IC50,[6],> 10 µg/mL
same,pseudovirus neutralization IC50,[7],> 10 µg/mL
BD55-6207 (protein) chain 1: EVQLLESGGGLVQPGGSLRLSCAASGFTFSKYAMSWVRQAPGKGLEWVSVIYSGSDGTNYGEFVKGRFTISRDDSKSMVYLQMNSLRADDTAVYYCAKEDAMTTVGYYAMDVWGQGTTVTVSS chain 2: DIQMTQSSSSLSASVGDRVTITCRASQSIGDYLNWYQQKPGKAPKLLIYAASRLQSGVPSRFTGSGSGTDFTLTITSLQPEDFATYYCQQSYSTPQWTFGQGTKLEIK,pseudovirus neutralization IC50,[1],> 10 µg/mL
same,pseudovirus neutralization IC50,[2],> 10 µg/mL
same,pseudovirus neutralization IC50,[3],> 10 µg/mL
same,pseudovirus neutralization IC50,[4],> 10 µg/mL
same,pseudovirus neutralization IC50,[5],> 10 µg/mL
same,pseudovirus neutralization IC50,[6],> 10 µg/mL
same,pseudovirus neutralization IC50,[7],> 10 µg/mL
BD55-6209 (protein) chain 1: QVTLKESGPVLVKPTETLTLTCTVSGFSLSSGKMGVGWIRQPPGKALEWLAHIFSNDEASYSTSLRSRLTISKDTSGNQVVLTMTNMDPVDTATYYCARLGSGSYYTNWFDPWGQGTLVTVSS chain 2: ELTQPPSVSVSPGQTARITCSADGLSRQYANWYQKKPGQAPVLVIYKDSERPSGIPERFSGSSSGTTVTLTIGGVQAEDEADYYCQTADSSGTSVMFGGGTKLTVL,pseudovirus neutralization IC50,[1],> 10 µg/mL
same,pseudovirus neutralization IC50,[2],> 10 µg/mL
same,pseudovirus neutralization IC50,[3],> 10 µg/mL
same,pseudovirus neutralization IC50,[4],> 10 µg/mL
same,pseudovirus neutralization IC50,[5],> 10 µg/mL
same,pseudovirus neutralization IC50,[6],> 10 µg/mL
same,pseudovirus neutralization IC50,[7],> 10 µg/mL
BD55-1180 (protein) chain 1: LVESGGGLVKAGGSLRLSCAASTFTFSDYQMTWFRQAPGKGLEWVSYINSRGDLTYYADSVKGRFTISRDNSKNSLFLQMNSLRVEDTAVYYCARDPVTPRRFDYWGQGTLVTVSS chain 2: DIQMTQSPSSLSASVGDRVTITCQASQDINKYLNWYQQKPGKAPKLLIYDASGLETGVPSRFSGSGSGTDFTFSISSLQPEDFATYYCQQYDKLPLTFGQGTKLEIK,pseudovirus neutralization IC50,[1],> 10 µg/mL
same,pseudovirus neutralization IC50,[2],> 10 µg/mL
same,pseudovirus neutralization IC50,[3],> 10 µg/mL
same,pseudovirus neutralization IC50,[4],> 10 µg/mL
same,pseudovirus neutralization IC50,[5],> 10 µg/mL
same,pseudovirus neutralization IC50,[6],> 10 µg/mL
same,pseudovirus neutralization IC50,[7],0.001 µg/mL
BD55-6221 (protein) chain 1: QVQLVQSGTEVKKPGSSVRVSCKASGGTFRSYSISWVRQAPGQGLEWMGEIISFFRTTNYAQKFQGRVTITADESTSTAYMELSSLRSEDTAVYYCARDNLLSLVGSTIRDYYYMDVWGTGTTVIVSS chain 2: DIQMTQSPSSLSASVGDRVTITCRASQNISNFLNWYQREQGKAPKLLIYAASTLQSGVPSRFSGSGSGTDFTLTLSSLQPEDFAIYYCQQSYNNPRTFGQGTKLEIK,pseudovirus neutralization IC50,[1],> 10 µg/mL
same,pseudovirus neutralization IC50,[2],> 10 µg/mL
same,pseudovirus neutralization IC50,[3],> 10 µg/mL
same,pseudovirus neutralization IC50,[4],> 10 µg/mL
same,pseudovirus neutralization IC50,[5],> 10 µg/mL
same,pseudovirus neutralization IC50,[6],> 10 µg/mL
same,pseudovirus neutralization IC50,[7],> 10 µg/mL
BD55-6224 (protein) chain 1: QVQLVESGGGVVQPGRSLRLSCTASGFTFRSYGMHWVRQAPGKGLEWVAIIWYDGSKKYYADSVRGRFTISRDNSKNTLYMEMNSLGAEDTAVYYCARDSQCSGASCYFDYNWFDRWGQGTLVTVSS chain 2: EIVLTQSPATLSLSPGERATLSCRTSQSISSNLAWYQQKPGQAPRLVIYDASNRATGIPARFSGSGSGTDFTLTISSLEPEDFAVYYCQQRHIWPPAYTFGQGTKLEIK,pseudovirus neutralization IC50,[1],> 10 µg/mL
same,pseudovirus neutralization IC50,[2],> 10 µg/mL
same,pseudovirus neutralization IC50,[3],> 10 µg/mL
same,pseudovirus neutralization IC50,[4],> 10 µg/mL
same,pseudovirus neutralization IC50,[5],> 10 µg/mL
same,pseudovirus neutralization IC50,[6],> 10 µg/mL
same,pseudovirus neutralization IC50,[7],> 10 µg/mL
BD55-6246 (protein) chain 1: QVQLVQSGAEVKKPGASVKVSCKASGYTFTTYDINWVRQAAGQGPEWMGWMNPNSGDTGYAHRFQDRVIMTRNTSISTAYMELSSLRSDDTAVYYCAIDSGFRAAYFYYYRMDVWGQGTTVTVSS chain 2: DIQMTQSPSSLSASVGDRVTITCRASQSISDSLNWYQQKPGKAPNLLMSAASNLQSGVPSRFSGSGSGTDFTLTISSLQPEDFATYYCQQSYTFPTTFGGGTKVEIK,pseudovirus neutralization IC50,[1],> 10 µg/mL
same,pseudovirus neutralization IC50,[2],> 10 µg/mL
same,pseudovirus neutralization IC50,[3],> 10 µg/mL
same,pseudovirus neutralization IC50,[4],> 10 µg/mL
same,pseudovirus neutralization IC50,[5],> 10 µg/mL
same,pseudovirus neutralization IC50,[6],> 10 µg/mL
same,pseudovirus neutralization IC50,[7],> 10 µg/mL
BD55-6260 (protein) chain 1: QVQLVQSGAEVKKPGASVKVSCKTSGNTFTSYDVNWLRQATGQGLEWMGWMNPNSGDTGYASKFQGRVTMTRDTSTATAYMELSSLRSEDTAVYYCAGGPSSFYGFRNWFDPWGQGTLVTVSS chain 2: DIQMTQSPSSLSASVGDRVTITCRASQSISSYLNWYHQKPGNAPKLLIYGASSLQSGVPSRFSGSGSGTDFTLTISSLQPEDFAIYYCQQSYTTPYTFGQGTKLEIK,pseudovirus neutralization IC50,[1],> 10 µg/mL
same,pseudovirus neutralization IC50,[2],> 10 µg/mL
same,pseudovirus neutralization IC50,[3],> 10 µg/mL
same,pseudovirus neutralization IC50,[4],> 10 µg/mL
same,pseudovirus neutralization IC50,[5],> 10 µg/mL
same,pseudovirus neutralization IC50,[6],> 10 µg/mL
same,pseudovirus neutralization IC50,[7],> 10 µg/mL
BD55-1201 (protein) chain 1: EVQLVESGGGLVQSGRSLRLSCAASGFTFDDYAIHWVRQLPGKGLEWVSGISWNGGIIGYVDSVKGRYVISRDNAKNFLYLHMRNLRAEDSALYYCAKDVVPGDRNSYAFDIWGQGTMVTVSS chain 2: QSALTQPASVSGSPGQSITISCTGTSSDVGVYNYVSWYQHHPGKAPKLMIYDVSNRPSGVSHRFSGSKSGNTASLTISGLQAEDEADYYCSSYTSSDTVIFAGGTKLTVL,pseudovirus neutralization IC50,[1],0.00619 µg/mL
same,pseudovirus neutralization IC50,[2],0.0115 µg/mL
same,pseudovirus neutralization IC50,[3],0.00978 µg/mL
same,pseudovirus neutralization IC50,[4],> 10 µg/mL
same,pseudovirus neutralization IC50,[5],> 10 µg/mL
same,pseudovirus neutralization IC50,[6],> 10 µg/mL
same,pseudovirus neutralization IC50,[7],0.00687 µg/mL

# Reference: the supplement of paper PMC9931576
